In PMC7954794, “Protein context shapes the specificity of SH3 domain-mediated interactions in vivo” (Nature Communications, 2021):
No dose or concentration is given here for some results.

Tests used:
Type in all cases: cell-based, Saccharomyces cerevisiae
Set-up in all cases: key: 0: SH3-independent; 1: SH3-dependent PPIs; 2: SH3-inhibited PPIs
ABP1 = assay: DHFR-PCA on solid medium, bait ABP1 (Fig. 1B); settings: bait ABP1, label = prey
From the text: (§1) Supplement 41467_2021_21873_MOESM8_ESM.xlsx, sheet "Fig1B" | column: medsize; medrep; Ratio; Score

BEM1-1 = assay: DHFR-PCA on solid medium, bait BEM1-1 (Fig. 1B); settings: bait BEM1-1, label = prey
From the text: as §1

BEM1-2 = assay: DHFR-PCA on solid medium, bait BEM1-2 (Fig. 1B); settings: bait BEM1-2, label = prey
From the text: as §1

B1: YBR200W (protein, UniProt P29366 1-551, looked up)
Bud emergence protein 1: MLKNFKLSKRDSNGSKGRITSADISTPSHDNGSVIKHIKTVPVRYLSSSSTPVKSQRDSSPKNRHNSKDITSPEKVIKAKYSYQAQTSKELSFMEGEFFYVSGDEKDWYKASNPSTGKEGVVPKTYFEVFDRTKPSSVNGSNSSSRKVTNDSLNMGSLYAIVLYDFKAEKADELTTYVGENLFICAHHNCEWFIAKPIGRLGGPGLVPVGFVSIIDIATGYATGNDVIEDIKSVNLPTVQEWKSNIARYKASNISLGSVEQQQQQSITKPQNKSAKLVDGELLVKASVESFGLEDEKYWFLVCCELSNGKTRQLKRYYQDFYDLQVQLLDAFPAEAGKLRDAGGQWSKRIMPYIPGPVPYVTNSITKKRKEDLNIYVADLVNLPDYISRSEMVHSLFVVLNNGFDREFERDENQNNIKTLQENDTATFATASQTSNFASTNQDNTLTGEDLKLNKKLSDLSLSGSKQAPAQSTSGLKTTKIKFYYKDDIFALMLKGDTTYKELRSKIAPRIDTDNFKLQTKLFDGSGEEIKTDSQVSNIIQAKLKISVHDI
B1 gave a Score (ABP1) of 2, a Score (BEM1-1) of 0 and a Score (BEM1-2) of 1.

B2: YCR002C (protein, UniProt P25342 1-322, looked up)
Cell division control protein …: MDPLSSVQPASYVGFDTITNQIEHRLLKKGFQFNIMVVGQSGLGKSTLINTLFASHLIDSATGDDISALPVTKTTEMKISTHTLVEDRVRLNINVIDTPGFGDFIDNSKAWEPIVKYIKEQHSQYLRKELTAQRERFITDTRVHAILYFLQPNGKELSRLDVEALKRLTEIANVIPVIGKSDTLTLDERTEFRELIQNEFEKYNFKIYPYDSEELTDEELELNRSVRSIIPFAVVGSENEIEINGETFRGRKTRWSAINVEDINQCDFVYLREFLIRTHLQDLIETTSYIHYEGFRARQLIALKENANSRSSAHMSSNAIQR
For B2, the Score (ABP1) was 0, the Score (BEM1-1) was 0 and the Score (BEM1-2) was 1.

B3: YDL225W (protein, UniProt Q07657 2-551, looked up)
Seventh homolog of septin 1: STASTPPINLFRRKKEHKRGITYTMLLCGPAGTGKTAFANNLLETKIFPHKYQYGKSNASISSNPEVKVIAPTKVVSFNSKNGIPSYVSEFDPMRANLEPGITITSTSLELGGNKDQGKPEMNEDDTVFFNLIMTHGIGENLDDSLCSEEVMSYLEQQFDIVLAEETRIKRNPRFEDTRVHVALYFIEPTGHGLREVDVELMKSISKYTNVLPIITRADSFTKEELTQFRKNIMFDVERYNVPIYKFEVDPEDDDLESMEENQALASLQPFAIITSDTRDSEGRYVREYPWGIISIDDDKISDLKVLKNVLFGSHLQEFKDTTQNLLYENYRSEKLSSVANAEEIGPNSTKRQSNAPSLSNFASLISTGQFNSSQTLANNLRADTPRNQVSGNFKENEYEDNGEHDSAENEQEMSPVRQLGREIKQENENLIRSIKTESSPKFLNSPDLPERTKLRNISETVPYVLRHERILARQQKLEELEAQSAKELQKRIQELERKAHELKLREKLINQNKLNGSSSSINSLQQSTRSQIKKNDTYTDLASIASGRD
B3 gave a Score (ABP1) of 0, a Score (BEM1-1) of 0 and a Score (BEM1-2) of 1.

B4: YIL033C (protein, UniProt P07278 2-416, looked up)
cAMP-dependent protein kinase …: VSSLPKESQAELQLFQNEINAANPSDFLQFSANYFNKRLEQQRAFLKAREPEFKAKNIVLFPEPEESFSRPQSAQSQSRSRSSVMFKSPFVNEDPHSNVFKSGFNLDPHEQDTHQQAQEEQQHTREKTSTPPLPMHFNAQRRTSVSGETLQPNNFDDWTPDHYKEKSEQQLQRLEKSIRNNFLFNKLDSDSKRLVINCLEEKSVPKGATIIKQGDQGDYFYVVEKGTVDFYVNDNKVNSSGPGSSFGELALMYNSPRAATVVATSDCLLWALDRLTFRKILLGSSFKKRLMYDDLLKSMPVLKSLTTYDRAKLADALDTKIYQPGETIIREGDQGENFYLIEYGAVDVSKKGQGVINKLKDHDYFGEVALLNDLPRQATVTATKRTKVATLGKSGFQRLLGPAVDVLKLNDPTRH
For B4, the Score (ABP1) was 0, the Score (BEM1-1) was 0 and the Score (BEM1-2) was 0.

B5: YJR076C (protein, UniProt P32458 2-415, looked up)
Cell division control protein …: SGIIDASSALRKRKHLKRGITFTVMIVGQSGSGRSTFINTLCGQQVVDTSTTILLPTDTSTEIDLQLREETVELEDDEGVKIQLNIIDTPGFGDSLDNSPSFEIISDYIRHQYDEILLEESRVRRNPRFKDGRVHCCLYLINPTGHGLKEIDVEFIRQLGSLVNIIPVISKSDSLTRDELKLNKKLIMEDIDRWNLPIYNFPFDEDEISDEDYETNMYLRTLLPFAIIGSNEVYEMGGDVGTIRGRKYPWGILDVEDSSISDFVILRNALLISHLHDLKNYTHEILYERYRTEALSGESVAAESIRPNLTKLNGSSSSSTTTRRNTNPFKQSNNINNDVLNPASDMHGQSTGENNETYMTREEQIRLEEERLKAFEERVQQELLLKRQELLQREKELREIEARLEKEAKIKQEE
Work on B5 yielded a Score (ABP1) of 2, a Score (BEM1-1) of 0 and a Score (BEM1-2) of 1.

B6: YLR314C (protein, UniProt P32457 2-520, looked up)
Cell division control protein …: SLKEEQVSIKQDPEQEERQHDQFNDVQIKQESQDHDGVDSQYTNGTQNDDSERFEAAESDVKVEPGLGMGITSSQSEKGQVLPDQPEIKFIRRQINGYVGFANLPKQWHRRSIKNGFSFNLLCVGPDGIGKTTLMKTLFNNDDIEANLVKDYEEELANDQEEEEGQGEGHENQSQEQRHKVKIKSYESVIEENGVKLNLNVIDTEGFGDFLNNDQKSWDPIIKEIDSRFDQYLDAENKINRHSINDKRIHACLYFIEPTGHYLKPLDLKFMQSVYEKCNLIPVIAKSDILTDEEILSFKKTIMNQLIQSNIELFKPPIYSNDDAENSHLSERLFSSLPYAVIGSNDIVENYSGNQVRGRSYPWGVIEVDNDNHSDFNLLKNLLIKQFMEELKERTSKILYENYRSSKLAKLGIKQDNSVFKEFDPISKQQEEKTLHEAKLAKLEIEMKTVFQQKVSEKEKKLQKSETELFARHKEMKEKLTKQLKALEDKKKQLELSINSASPNVNHSPVPTKKKGFLR
Work on B6 yielded a Score (ABP1) of 0, a Score (BEM1-1) of 0 and a Score (BEM1-2) of 1.

B7: YLR332W (protein, UniProt P36027 26-376, looked up)
Cell wall integrity sensor …: QFFVQSSSSNSSAVSTARSSVSRVSSSSSILSSSMVSSSSADSSSLTSSTSSRSLVSHTSSSTSIASISFTSFSFSSDSSTSSSSSASSDSSSSSSFSISSTSATSESSTSSTQTSTSSSSSLSSTPSSSSSPSTITSAPSTSSTPSTTAYNQGSTITSIINGKTILSNHYTTVTYTPSATADSSNKSKSSGLSKKNRNIVIGCVVGIGVPLILVILALIYMFCIQSSRTDFIDSDGKVVTAYRANKFTKWWYMLLGKKVSDEYHSDSPLGGSASSAGGLDLDEADDVMEQSSLFDVRIRDSDSVLPNANTADHNNTNSGGEPINSSVASNDIIEEKFYDEQGNELSPRNY
Work on B7 yielded a Score (ABP1) of 2, a Score (BEM1-1) of 0 and a Score (BEM1-2) of 0.

B8: YML016C (protein, UniProt P26570 2-692, looked up)
Serine/threonine-protein …: GNSSSKSSKKDSHSNSSSRNPRPQVSRTETSHSVKSAKSNKSSRSRRSLPSSSTTNTNSNVPDPSTPSKPNLEVNHQRHSSHTNRYHFPSSSHSHSNSQNELLTTPSSSSTKRPSTSRRSSYNTKAAADLPPSMIQMEPKSPILKTNNSSTHVSKHKSSYSSTYYENALTDDDNDDKDNDISHTKRFSRSSNSRPSSIRSGSVSRRKSDVTHEEPNNGSYSSNNQENYLVQALTRSNSHASSLHSRKSSFGSDGNTAYSTPLNSPGLSKLTDHSGEYFTSNSTSSLNHHSSRDIYPSKHISNDDDIENSSQLSNIHASMENVNDKNNNITDSKKDPNEEFNDIMQSSGNKNAPKKFKKPIDIDETIQKLLDAGYAAKRTKNVCLKNNEILQICIKAREIFLSQPSLLELSPPVKIVGDVHGQYGDLLRLFTKCGFPPSSNYLFLGDYVDRGKQSLETILLLFCYKIKYPENFFLLRGNHECANVTRVYGFYDECKRRCNIKIWKTFIDTFNTLPLAAIVAGKIFCVHGGLSPVLNSMDEIRHVVRPTDVPDFGLINDLLWSDPTDSPNEWEDNERGVSYCYNKVAINKFLNKFGFDLVCRAHMVVEDGYEFFNDRSLVTVFSAPNYCGEFDNWGAVMSVSEGLLCSFELLDPLDSAALKQVMKKGRQERKLANQQQQMMETSITNDNESQQ
In the case of B8, the Score (ABP1) is reported as 2, the Score (BEM1-1) is reported as 0 and the Score (BEM1-2) is reported as 1.

B9: YER008C (protein, UniProt P33332 1-1336, looked up)
Exocyst complex component SEC3: MRSSKSPFKRKSHSRETSHDENTSFFHKRTISGSSAHHSRNVSQGAVPSSAPPVSGGNYSHKRNVSRASNSSQTSNFLAEQYERDRKAIINCCFSRPDHKTGEPPNNYITHVRIIEDSKFPSSRPPPDSKLENKKKRLLILSAKPNNAKLIQIHKARENSDGSFQIGRTWQLTELVRVEKDLEISEGFILTMSKKYYWETNSAKERTVFIKSLITLYIQTFEGHVPELVNWDLSLFYLDERSYQRAVITNRPGSVSPIKSPTSNFTTNTTQSVGSVPFSAPTERTRRSETESVNPVSTPASVEYHAGMKSLNKAPYSSNSTLNEVNKRYELEQQQQQEEAELRRLEEQKRLQLQKENEMKRLEEERRIKQEERKRQMELEHQRQLEEEERKRQMELEAKKQMELKRQRQFEEEQRLKKERELLEIQRKQREQETAERLKKEEQEALAKKEEEEKSKRNKVDNESYTQEINGKVDNLLEDLNAVLAEETETTPTMQNGTYVPERSTARAHDQLKKPLNIAKVESLGGSDLNDSISLSDEIAGLNTSNLSGEDQDEKNDLSFEKGDEVRYSNNFEGEAPHVYHEVSIIQEEAPAVSQKLILPEENNESEALIESKEEIKTMENIDDEVLLEILTDINWSIEDDADSMIERIDLRLAETEYLFNQNLLSLQKIGPNIRPYEDKVNDECHRIIPTLSLFLMEMSNFSNDIENVESQDNGLQVESANKKLLWNTLDELLKTVSLDEISLNQLLECPIREKNLPWMENQLNLLLKAFQAIGSDGNEVEYNLREISGLKQRLQFYEKVTKIFLNRIVEEMQKKFSNIRGQDISHDQMIRILTTLLIFSPLILFCKEISQKSYQAIVENWNVSIQPVYMELWTKKISQLQGIDTNDEKMNELSLSQLLNEWDTFRKERKTNDINPVFKNSFSLLTECLQTMRQECIVYQNFVEVFFHISSKHNFEEYIKHFNDPDAPPILLDTVKVMQSDREAAVIETQLVSRIFQPIVTRLSSYFVELVKAEPTVAPALTFYLENEIKSLESSNHEFLLSAVTRMYTQIKQVWSDNVEEQVLHFERISNATTNGEILPGILDLPVGLKNSEDLFQFAKRSMDIKDTDEGYESIELMNSSFRKLSIAATRSITHKEVNSSINPNLSDTAALNNDYMETISLLVNSNWLTEMLSMLNFNKDGIFDTSLQNVKKVFDVEKESYASFLLRDTMPKLTAFVYGVSNIIENTNNVNMTNPSRWAAYSRQNLENILLAYTSHEIETLVKRLHTHMVNDFGYHQENAINNVLCDKLWSCIQGQTVSLYLKLYTVIDKHYRGTNIRFTKNDIISAFEEYKNA
In the case of B9, the Score (ABP1) is reported as 2, the Score (BEM1-1) is reported as 1 and the Score (BEM1-2) is reported as 1.
